## Mutational interference map of HIV-1 RNA dimerization

Reference: Ye et al. 2022, doi:10.1038/s41594-022-00746-2.

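Mutant RNA libraries with 1G, 2G or 3G starts, with or without cap, were folded at 37 °C for 30 min. Monomer and dimer bands were cut from native gels after folding in high salt (300 mM KCl, 5 mM MgCl2) or low salt (40 mM KCl, 0.1 mM MgCl2). Mutation frequencies in the two bands give Kdimer.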

The 5' region of HIV-1 NL4-3 RNA (positions 1-437):
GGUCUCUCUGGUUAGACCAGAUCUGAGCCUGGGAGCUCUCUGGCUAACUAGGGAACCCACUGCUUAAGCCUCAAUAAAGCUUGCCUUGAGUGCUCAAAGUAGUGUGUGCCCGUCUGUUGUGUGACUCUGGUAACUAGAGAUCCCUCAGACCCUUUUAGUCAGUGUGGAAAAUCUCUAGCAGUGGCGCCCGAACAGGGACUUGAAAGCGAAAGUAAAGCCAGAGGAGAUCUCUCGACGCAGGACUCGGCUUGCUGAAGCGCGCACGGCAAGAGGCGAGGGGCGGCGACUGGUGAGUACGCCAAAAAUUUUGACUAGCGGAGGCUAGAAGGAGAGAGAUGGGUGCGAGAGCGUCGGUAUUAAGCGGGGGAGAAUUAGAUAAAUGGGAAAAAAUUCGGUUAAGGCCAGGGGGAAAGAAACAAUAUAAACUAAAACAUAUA

Values are log2 Kdimer, the median over the changes at each position: higher means that changes there hinder dimer formation, below 0 that they favour it. Sample: 2G capped low-salt. One numbering serves 1G, 2G and 3G. A position is written with its base where known. The source gives no letters past position 437.

| # | position | domain | 2G capped low-salt |
|---|---|---|---|
| 1 | C28 | TAR | -0.57 |
| 2 | C29 | TAR | -0.16 |
| 3 | C38 | TAR | 0.00 |
| 4 | A47 | TAR | 0.03 |
| 5 | A54 | TAR | -0.30 |
| 6 | A66 | PolyA | -0.02 |
| 7 | G99 | PolyA | -0.03 |
| 8 | U100 | PolyA | 0.11 |
| 9 | U113 | none | 0.11 |
| 10 | C114 | none | 0.14 |
| 11 | U115 | none | 0.34 |
| 12 | U117 | none | -0.19 |
| 13 | U131 | PAS | 0.57 |
| 14 | A132 | PBS | 0.01 |
| 15 | A147 | PBS | -0.07 |
| 16 | C152 | PBS | -0.32 |
| 17 | G164 | PBS | 0.10 |
| 18 | C173 | PBS | -0.38 |
| 19 | G181 | PBS | -0.62 |
| 20 | G183 | PBS | 0.03 |
| 21 | G186 | PBS | -0.48 |
| 22 | C187 | PBS | -0.17 |
| 23 | C189 | PBS | -0.03 |
| 24 | A192 | PBS | 0.11 |
| 25 | C193 | PBS | -0.29 |
| 26 | G195 | PBS | 0.38 |
| 27 | C207 | PBS | -0.56 |
| 28 | G208 | PBS | -0.32 |
| 29 | C218 | antiPAS | -0.88 |
| 30 | G223 | antiPAS | 0.45 |
| 31 | G224 | none | -0.29 |
| 32 | A225 | none | -0.21 |
| 33 | A227 | CU | 1.12 |
| 34 | G234 | none | -0.05 |
| 35 | A235 | none | -1.31 |
| 36 | G240 | none | -0.10 |
| 37 | G241 | none | -0.18 |
| 38 | G246 | SL1 | 1.90 |
| 39 | U253 | SL1 | 2.13 |
| 40 | A256 | SL1 | 2.05 |
| 41 | G257 | SL1 | 3.25 |
| 42 | C260 | SL1 | 3.05 |
| 43 | C264 | SL1 | 2.59 |
| 44 | G265 | SL1 | 2.86 |
| 45 | A269 | SL1 | 1.62 |
| 46 | G270 | SL1 | 0.78 |
| 47 | C284 | SL2 | 0.40 |
| 48 | G298 | SL2 | -0.59 |
| 49 | C299 | SL2 | -0.44 |
| 50 | U306 | none | 0.00 |
| 51 | U308 | none | -0.12 |
| 52 | U309 | none | 0.23 |
| 53 | A311 | none | 0.81 |
| 54 | A314 | SL3 | -0.26 |
| 55 | A332 | none | 0.46 |
| 56 | G339 | AUG | 0.51 |
| 57 | C349 | none | -0.06 |
| 58 | C352 | none | -0.01 |
| 59 | C362 | none | 0.16 |
| 60 | G363 | none | 0.26 |
| 61 | A371 | none | -0.54 |
| 62 | G375 | none | -0.10 |
| 63 | G384 | none | -0.14 |
| 64 | A385 | none | -0.25 |
| 65 | A387 | none | -0.02 |
| 66 | A388 | none | -0.06 |
| 67 | U391 | none | -0.06 |
| 68 | G394 | none | 0.15 |
| 69 | G395 | none | -0.42 |
| 70 | A404 | none | -0.22 |
| 71 | A415 | none | -0.05 |
| 72 | A421 | none | -0.04 |
| 73 | U422 | none | -0.06 |
| 74 | A425 | none | -0.03 |
| 75 | C426 | none | -0.11 |
| 76 | 440 | none | 0.08 |
| 77 | 442 | none | -0.02 |
| 78 | 447 | none | -0.07 |
| 79 | 466 | none | 0.08 |
| 80 | 475 | none | -0.10 |
| 81 | 476 | none | -0.11 |
| 82 | 478 | none | -0.11 |
| 83 | 484 | none | 0.12 |
| 84 | 488 | none | 0.00 |
| 85 | 489 | none | -0.15 |
| 86 | 503 | none | -0.02 |
| 87 | 506 | none | 0.14 |
| 88 | 507 | none | -0.09 |

The opening 9 entries, copied out:

{"position": "C28", "domain": "TAR", "2G capped low-salt": -0.57}
{"position": "C29", "domain": "TAR", "2G capped low-salt": -0.16}
{"position": "C38", "domain": "TAR", "2G capped low-salt": 0.00}
{"position": "A47", "domain": "TAR", "2G capped low-salt": 0.03}
{"position": "A54", "domain": "TAR", "2G capped low-salt": -0.30}
{"position": "A66", "domain": "PolyA", "2G capped low-salt": -0.02}
{"position": "G99", "domain": "PolyA", "2G capped low-salt": -0.03}
{"position": "U100", "domain": "PolyA", "2G capped low-salt": 0.11}
{"position": "U113", "domain": "none", "2G capped low-salt": 0.11}